PubChem BioAssay AID1259414, Drosophila RNAi Screening Center | 2018
Assay: 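Fly genes that alter Wolbachia amount inside host cells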 (primary screen). Cells: Drosophila JW18 cells infected with Wolbachia. Knock-down reagent: long dsRNA against Drosophila genes, 0.25 µg dsRNA per well of a 384-well plate. Time to read-out: 5 days. Conditions: cells persistently infected with Wolbachia before knock-down; no added drug. Detection: 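Automated imaging of bacterial rRNA staining divided by host cell count, reported as plate-normalised robust z-score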. Scale: Wolbachia per cell robust z: higher = more Wolbachia per host cell than the plate typical. Active means: 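Hit when robust z is 1.5 or more, or -1.5 or less, in at least two of three replicates; excludes dsRNAs with several or no targets, genes not expressed in JW18 and well A1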.
In all, the deposit lists about 24,000 reagents; shown is an unselected part of those with a known target gene and a result. Over the whole deposit, about 1,210 (5%) got an active call. 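Inactive calls also include excluded dsRNAs with several or no targets, genes unexpressed in JW18, and well A1, regardless of score.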 Names joined by + are all predicted targets of the reagent. No sequences are given here.

With CG32820 + CG17450 + CG32819 [DRSC21803], how do the results read?
Wolbachia per cell robust z, rep 1: -0.518; Wolbachia per cell robust z, rep 2: -1.7; Wolbachia per cell robust z, rep 3: -1.37; Outcome: inactive

For CG32820 + CG17450 + CG32819 [DRSC22812], how do the results read?
Wolbachia per cell robust z, rep 1: -0.113; Wolbachia per cell robust z, rep 2: 0.51; Wolbachia per cell robust z, rep 3: 0.349; Outcome: inactive

With CG13060 (GeneID 39802) [DRSC09943], what does the deposit list?
Wolbachia per cell robust z, rep 1: -3.6; Wolbachia per cell robust z, rep 2: -5.76; Wolbachia per cell robust z, rep 3: 1.56; Outcome: inactive

Which result is listed for CG13060 (GeneID 39802) [DRSC28110]?
Wolbachia per cell robust z, rep 1: 0.633; Wolbachia per cell robust z, rep 2: -0.316; Wolbachia per cell robust z, rep 3: -1.11; Outcome: inactive

For Dic61B (GeneID 38020) [DRSC08588], how do the results read?
Wolbachia per cell robust z, rep 1: 1.24; Wolbachia per cell robust z, rep 2: 0.75; Wolbachia per cell robust z, rep 3: 0.333; Outcome: inactive

With Dic61B (GeneID 38020) [DRSC27636], what was measured?
Wolbachia per cell robust z, rep 1: 0.354; Wolbachia per cell robust z, rep 2: 2.12; Wolbachia per cell robust z, rep 3: -0.833; Outcome: inactive

For Srpk79D (GeneID 40461) [DRSC11668], what does the deposit list?
Wolbachia per cell robust z, rep 1: 0.467; Wolbachia per cell robust z, rep 2: 0.979; Wolbachia per cell robust z, rep 3: 0.814; Outcome: inactive

What did the screen give for Srpk79D (GeneID 40461) [DRSC11856]?
Wolbachia per cell robust z, rep 1: -0.326; Wolbachia per cell robust z, rep 2: -0.42; Wolbachia per cell robust z, rep 3: 0.402; Outcome: inactive

For Srpk79D (GeneID 40461) [DRSC29962], how do the results read?
Wolbachia per cell robust z, rep 1: 0.548; Wolbachia per cell robust z, rep 2: 0.589; Wolbachia per cell robust z, rep 3: -3.63; Outcome: inactive

With mRpL32 (GeneID 43698) [DRSC14479], what does the deposit list?
Wolbachia per cell robust z, rep 1: -1.21; Wolbachia per cell robust z, rep 2: -3.45; Wolbachia per cell robust z, rep 3: -1.97; Outcome: active

With fig (GeneID 43511) [DRSC16270], how do the results read?
Wolbachia per cell robust z, rep 1: 0.0215; Wolbachia per cell robust z, rep 2: -0.244; Wolbachia per cell robust z, rep 3: 0.219; Outcome: inactive

For fig (GeneID 43511) [DRSC24735], how do the results read?
Wolbachia per cell robust z, rep 1: -0.226; Wolbachia per cell robust z, rep 2: -0.293; Wolbachia per cell robust z, rep 3: -0.57; Outcome: inactive

For fig (GeneID 43511) [DRSC41622], what was measured?
Wolbachia per cell robust z, rep 1: 0.314; Wolbachia per cell robust z, rep 2: 1.03; Wolbachia per cell robust z, rep 3: -0.985; Outcome: inactive

What is on record for arr (GeneID 44279) [DRSC07451]?
Wolbachia per cell robust z, rep 1: 0.109; Wolbachia per cell robust z, rep 2: 0.00335; Wolbachia per cell robust z, rep 3: 0.192; Outcome: inactive

For arr (GeneID 44279) [DRSC27035], what was measured?
Wolbachia per cell robust z, rep 1: -0.308; Wolbachia per cell robust z, rep 2: 0.384; Wolbachia per cell robust z, rep 3: 0.0764; Outcome: inactive

With Amacr (GeneID 35337) [DRSC03198], what was measured?
Wolbachia per cell robust z, rep 1: -0.0467; Wolbachia per cell robust z, rep 2: -0.874; Wolbachia per cell robust z, rep 3: 0.55; Outcome: inactive
